Measurements: the supplement of paper PMC3578754

Tests used:
Assay in all cases: fold change of IC50 against reference virus; higher = more resistant; Cell-culture drug susceptibility tests of virus bearing the protease of each isolate, gathered from many studies.
nelfinavir = compound: Cc1c(O)cccc1C(=O)N[C@@H](CSc1ccccc1)[C@H](O)CN1C[C@H]2CCCC[C@H]2C[C@H]1C(=O)NC(C)(C)C [nelfinavir]
saquinavir = compound: CC(C)(C)NC(=O)[C@@H]1C[C@@H]2CCCC[C@@H]2CN1C[C@@H](O)[C@H](Cc1ccccc1)NC(=O)[C@H](CC(N)=O)NC(=O)c1ccc2ccccc2n1 [saquinavir]
indinavir = compound: CC(C)(C)NC(=O)[C@@H]1CN(Cc2cccnc2)CCN1C[C@@H](O)C[C@@H](Cc1ccccc1)C(=O)N[C@H]1c2ccccc2C[C@H]1O [indinavir]
lopinavir = compound: Cc1cccc(C)c1OCC(=O)N[C@@H](Cc1ccccc1)[C@@H](O)C[C@H](Cc1ccccc1)NC(=O)[C@H](C(C)C)N1CCCNC1=O [lopinavir]
ritonavir = compound: CC(C)c1nc(CN(C)C(=O)N[C@H](C(=O)N[C@@H](Cc2ccccc2)C[C@H](O)[C@H](Cc2ccccc2)NC(=O)OCc2cncs2)C(C)C)cs1 [ritonavir]
atazanavir = compound: COC(=O)N[C@H](C(=O)N[C@@H](Cc1ccccc1)[C@@H](O)CN(Cc1ccc(-c2ccccn2)cc1)NC(=O)[C@@H](NC(=O)OC)C(C)(C)C)C(C)(C)C [atazanavir]

Test System	fold change of IC50 against reference virus (nelfinavir)	fold change of IC50 against reference virus (saquinavir)	fold change of IC50 against reference virus (indinavir)	fold change of IC50 against reference virus (lopinavir)	fold change of IC50 against reference virus (ritonavir)	fold change of IC50 against reference virus (atazanavir)
HIV-1 isolate 1181 (protease changes: I15V Q18H K20I E35D M36I P39S I62V L63P A71V I72L G73S L90M, study 65)	26	20	17	4.4	15	11
HIV-1 isolate 795 (protease changes: L10F D30N L63P V77I V82A, study 138)	45	2.3	1.8	1.2	0.9	2.5
HIV-1 isolate 682 (protease changes: T12S I15V L19I K20R E35D M36I R41K H69K L89M I93L, study 41)	1.3	0.8	1	0.8	1.3	1.2
HIV-1 isolate 1615 (protease changes: K20I N37E M46L L63S A71V T74S V77I I93L, study 83)	12	2.1	2.4	1.4	1.8	2.4
HIV-1 isolate 1402 (protease changes: I15V M36I, study 15)	0.9	0.9	0.8	0.8	1.2	0.9
HIV-1 isolate 62 (protease changes: L23I R57G, study 145)	1.3	0.6	0.6	0.8	0.8	0.7
HIV-1 isolate 240 (protease changes: K20R N37T R57G L63P G73S V77I V82I I93L, study 145)	3.2	0.8	0.8	0.6	1.2	1.5
HIV-1 isolate 1246 (protease changes: I13V I15V Q18I L19I D30N L33F D60E L63P V77I N88D L90M I93L, study 83)	98	16	3.5	2.6	8.4	4.8
HIV-1 isolate 622 (protease changes: L10I I13V E35D M36I R41K I50V L63P A71V L90M, study 117)	10.1	8.4	2.9	12.4	20.2	2
HIV-1 isolate 1570 (protease changes: L10F M46L I54V Q58E D60E Q61D L63P A71T I72R V77I V82A L90M I93L, study 15)	58	18	42	67	102	13
HIV-1 isolate 371 (protease changes: L10I K14R I15V K20I R41I M46I I54V D60N I62V L63P I64V A71V V82T I84V I85V, study 15)	12	15	17	17	54	10
HIV-1 isolate 18 (protease changes: T12S K14R R41K K45R I50L L63A H69Q A71V V77I, study 15)	0.6	0.5	0.4	0.3	0.2	4.1
HIV-1 isolate 554 (protease changes: L10I M46I F53L L63P A71V G73S V82T L90M, study 138)	18.4	16.7	17	9.9	45.3	19.3
HIV-1 isolate 1193 (protease changes: L10I I13V K20R L33F E34N E35D N37D K43T G48M I54S Q61E I62V L63P I64V T74S V77I V82T, study 15)	110	500	140	99	190	120
HIV-1 isolate 823 (protease changes: L10F M46I I50L I54V L63P A71V G73S V77I V82A, study 15)	8.3	1.6	4.2	3.6	6.5	76
HIV-1 isolate 532 (protease changes: M36I R41K D60E I62V L63P A71V G73S L90M I93L, study 15)	5.5	3.2	2.8	1.2	5	3.1
HIV-1 isolate 295 (protease changes: E35D D60E L63P H69Q A71T I72V V77I, study 15)	4.4	1.8	1.9	1	2.1	1.6
HIV-1 isolate 1154 (protease changes: L10I K20R L33F E34T E35D M36I N37D K43T M46I G48V I50V I54S I62V L63P A71V I72V V77I V82A I85V I93L, study 83)	91	800	400	400	400	75
HIV-1 isolate 272 (protease changes: L10I I13V L19I L24I L33F E34Q M36I K43T M46I F53L I54V K55R L63P A71V V82A I84V T91A, study 15)	28	87	15	130	500	53
HIV-1 isolate 1357 (protease changes: L10I K20R V32I E35D M36I K43T M46I I47V F53L L63P A71T I72V V77L V82C L90M I93L, study 64)	25	15	15	78	116	24

Fold change is the IC50 on the isolate divided by the IC50 on a reference virus; 1 = unchanged, higher = more resistant. Changes are given against the subtype B consensus. No active / inactive call. The values were gathered from many studies (numbered anew) with different assays, which the source does not name. Most viruses are clinical isolates; some are laboratory strains or clones with known resistance changes. Isolates with mixed residues are left out; stretches that were not sequenced show no change. Round top values that many isolates share are read here as limits; other very high values and 0.1 may be limits too. The protease changes I3V and N37S, insertions and deletions cannot be read from the source.
